A mixed list of measured activities; the numbers were collected in NIAID ChemDB.

Common to all: tests in culture; agent: HIV-1

Neighbouring rows are from separate reports.

SMILES,method,strain,changes,measure,cell line,value
Cn1cc(NC(=O)Nc2cc(C(=O)Nc3cc(C(=O)Nc4ccc(S(=O)(=O)O)c5cc(S(=O)(=O)O)ccc45)n(C)c3)n(C)c2)cc1C(=O)Nc1cc(C(=O)Nc2ccc(S(=O)(=O)O)c3cc(S(=O)(=O)O)ccc23)n(C)c1,cytopathic effect / XTT,RF,-,EC50,CEM + CEM-SS,1.5 µM
CC(C)CN(C[C@@H](O)[C@H](Cc1ccccc1)NC(=O)O[C@H]1CCOC1)S(=O)(=O)c1ccc(F)cc1,p24,IIIB,-,EC50,CEM,<0.101 µM
COCc1nc(Nc2ccc(C#N)cc2)nc(Nc2c(C)cc(/C=C/C#N)cc2C)c1C(=O)NC1CC1,-,L1001+K103N,-,EC50,MT4 CMV-EGFP,0.0155 µM
CC1=C(C(=O)Nc2cccc(C(=O)OC(C)C)c2)SCCO1,syncytia,TSAO-resistant (RT E138K),RT-E138K,EC50,CEM,>10 µg/mL
COCc1nc(Nc2ccc(C#N)cc2)nc(Oc2c(C)cc(/C=C(\C)C#N)cc2C)c1C(=O)NCc1ccncc1,-,K103N+Y101C,-,EC50,MT4 CMV-EGFP,0.105 µM
Cc1[nH]c(=S)n(Nc2cccc(Cl)c2)c1C,cytopathic effect / MTT,NL4-3,-,EC50,MT-4,>259 µM
Cc1ccc(C)c(CS(=O)(=O)c2cccc[n+]2[O-])c1,syncytia,IIIB,RT-K103N,EC50,CEM,11 µg/mL
CCN1c2ncc(CCOc3ccc(-c4ccc(F)c(C(=O)O)c4)cc3)cc2C(=O)N(C)c2cccnc21,p24,IIIB,-,EC50,C8166,<0.01 µM
CC(=O)Nc1ccc(S(=O)(=O)N(CC2CCCC2)C[C@@H](O)[C@H](Cc2ccccc2)NC(=O)OCc2cccnc2)cc1,p24,IIIB,-,EC50,CEM,<0.101 µM
Cc1ncn(Nc2cccc(Cl)c2)c1-c1ccccc1,cytopathic effect / MTT,NL4-3,-,EC50,MT-4,1.9 µM
CCCOC(=O)N[C@@H](Cc1ccccc1)[C@H](O)CN(CC(C)C)S(=O)(=O)c1ccc(Cl)c(Cl)c1,p24,IIIB,-,EC50,CEM,<1.001 µM
COCCOC(=O)c1cc(NC(=O)C2=C(C)OCCS2)ccc1Cl,syncytia,IIIB,-,EC50,CEM,0.6 µg/mL
COCc1nc(Nc2ccc(C#N)cc2)nc(Nc2c(C)cc(/C=C/C#N)cc2C)c1C(=O)NCc1ccncc1,-,IIIB,-,EC50,MT4 CMV-EGFP,0.00339 µM
COc1ccc(C)cc1CS(=O)(=O)c1cccc[n+]1[O-],syncytia,IIIB,RT-Y181C,EC50,CEM,50 µg/mL
CCC1=C(C(=O)Nc2ccc(Cl)c(C(=O)OCC(C)C)c2)SCCO1,syncytia,TSAO-resistant (RT E138K),RT-E138K,EC50,CEM,0.5 µg/mL
CC(C)OC(=O)c1cc(NC(=S)OC(C)C)ccc1Cl,syncytia,IIIB,RT-Y181C,EC50,CEM,1.9 µM
CCN1C[C@H](C)n2c(c(O)c3c(=O)n(Cc4ccc(F)c(Cl)c4)nc(C(=O)NC)c32)C1=O,RT activity,NL4-3,G118R/E138K,EC50,PM1,0.0153 µM
CN1CCN(C(=O)c2ccc3c(=O)c4ccccc4[nH]c3c2)CC1,syncytia,PYR-resistant (RT Y181C),RT-Y181C,EC50,CEM,0.5 µg/mL
S=c1[nH]c2c(n1Nc1cccc(Cl)c1)CCCC2,cytopathic effect / MTT,NL4-3,-,EC50,MT-4,>126 µM
CCN1c2ncc(CCOc3ccc(C(=O)NS(=O)(=O)c4ccccc4)cc3C)cc2C(=O)N(C)c2cccnc21,p24,-,RT-K103N Y181C,EC50,C8166,>0.05 µM
COC(=O)c1cc(NC(=O)C2=C(C)OCCS2)ccc1Cl,syncytia,TIBO-resistant (RT L100I),RT-L100I,EC50,CEM,>10 µg/mL
C=C(C)COC(=O)N[C@@H](Cc1ccccc1)[C@H](O)CN(CC(C)C)S(=O)(=O)c1ccc(Cl)c(Cl)c1,p24,IIIB,-,EC50,CEM,<1.001 µM
CC1=C(C(=O)Nc2ccc(Cl)c(C(=O)OC3CCCC3)c2)SCCO1,syncytia,IIIB,-,EC50,CEM,0.02 µg/mL
Cc1ccc(C)c(CS(=O)c2ccc(Cl)c[n+]2[O-])c1,syncytia,HE,-,EC50,CEM,4 µg/mL
Cc1cn(C2OC(CO[Si](C)(C)C(C)(C)C)C3(OS(=O)(=O)C=C3N)C2O[Si](C)(C)C(C)(C)C)c(=O)n(CCCNC(=O)c2ccc(N=[N+]=[N-])cc2O)c1=O,syncytia,E138K,-,EC50,CEM,>50 µM
Cc1ncn(Nc2ccccc2)c1-c1ccccc1,cytopathic effect / MTT,SO561945 (RT K103N Y181C),RT-K103N Y181C,EC50,MT-4,>52.18 µM
COCc1nc(Nc2ccc(C#N)cc2)nc(Nc2c(C)cc(/C=C/C#N)cc2C)c1C(=O)NCCN1CCOCC1,-,L1001+K103N,-,EC50,MT4 CMV-EGFP,0.214 µM
CC(=O)Nc1ccc(S(=O)(=O)N(CC(C)C)C[C@@H](O)[C@H](Cc2ccccc2)NC(=O)OCc2cccnc2)cc1,p24,IIIB,-,EC50,CEM,<0.101 µM
Cc1cn(C2OC(CO[Si](C)(C)C(C)(C)C)C3(OS(=O)(=O)C=C3N)C2O[Si](C)(C)C(C)(C)C)c(=O)n(CC(=O)N(CCCl)CCCl)c1=O,trypan blue,IIIB,-,EC50,MT-4,0.08 µM
C=C(CC[C@](C)(O)[C@H]1C(=O)C[C@H]2[C@@H]3C(=O)C=C4[C@@H](O)[C@@H](O)CC[C@]4(C)[C@H]3CC[C@@]21C)C(C)C,MTT,NL4-3,-,EC50,MT-4,0.54 µM
COCc1nc(Nc2ccc(C#N)cc2)nc(Nc2c(C)cc(/C=C/C#N)cc2C)c1C(=O)N1CCN(C)CC1,-,IIIB,-,EC50,MT4 CMV-EGFP,0.024 µM
CC(C)[C@H](C)CC[C@](C)(O)[C@H]1C(=O)C[C@H]2[C@@H]3C(=O)C=C4C[C@@H](O)CC[C@]4(C)[C@H]3CC[C@@]21C,MTT,NL4-3,IN E92Q INI-resistant,EC50,MT-4,0.1029 µM
CC(C)CN(C[C@@H](O)[C@H](Cc1ccccc1)NC(=O)[C@H](CC(N)=O)NC(=O)c1ccc2ccccc2n1)S(=O)(=O)c1cc(S(=O)(=O)c2ccccc2)cs1,p24,IIIB,-,EC90,CEM,<0.1 µM
COCc1nc(Nc2ccc(C#N)cc2)nc(Nc2c(C)cc(/C=C/C#N)cc2C)c1C(=O)NCCN(C)C,-,MDR,-,EC50,MT4 CMV-EGFP,2.04 µM
CC1=C(C(=O)Nc2ccc(F)c(C(=O)OC(C)C)c2)SCCO1,syncytia,IIIB,-,EC50,CEM,0.35 µg/mL
O=C(N[C@@H](Cc1ccccc1)[C@H](O)CN(CC1CCCC1)S(=O)(=O)c1ccc(Cl)c(Cl)c1)O[C@@H]1CCOC1,p24,IIIB,-,EC50,CEM,<0.101 µM
CCN1c2ncc(CCOc3ccc(NC(=O)CC4(C(=O)O)CCCC4)cc3C)cc2C(=O)N(C)c2cccnc21,p24,-,RT-K103N Y181C,EC50,C8166,<0.01 µM
CCCC1=C(C(=O)Nc2ccc(Cl)c(C(=O)OC)c2)SCCO1,syncytia,Nevirapine-resistant (RT V106A),RT-V106A,EC50,CEM,>10 µg/mL
COCc1nc(Nc2ccc(C#N)cc2)nc(Nc2c(C)cc(/C=C(\C)C#N)cc2C)c1C(=O)NCc1ccncc1,-,K103N+Y101C,-,EC50,MT4 CMV-EGFP,0.0851 µM
CCC(=O)Oc1ccc(NC(=O)C2=C(C)OCCS2)cc1C(=O)OC(C)C,syncytia,TSAO-resistant (RT E138K),RT-E138K,EC50,CEM,>10 µg/mL
Cc1cn(C2OC(CO[Si](C)(C)C(C)(C)C)C3(OS(=O)(=O)C=C3N)C2O[Si](C)(C)C(C)(C)C)c(=O)n(CC2CO2)c1=O,syncytia,IIIB,-,EC50,CEM,0.1 µM
CCN1c2ncc(CCOc3ccc(-c4cc(C(=O)O)c(C)o4)cc3)cc2C(=O)N(C)c2cccnc21,p24,IIIB,-,EC50,C8166,0.01–0.05 µM
CC1=C(C(=O)Nc2ccc(Cl)c(C(=O)OC(C)C)c2)SCCO1,syncytia,IIIB,RT-Y188H,EC50,CEM,2.8 µM

Blank or dashed fields: not listed here. ECn: concentration that inhibits the pathogen or its effect by n%. Two numbers with a dash give a range or band.